Pooled drug test results. Numbers come from NIAID ChemDB, via PubChem.

Common to all: growth or infection tests; agent: Herpes simplex virus 2; cells: VERO; measure: EC50

Rows are shuffled and stem from different studies. Blank or dashed fields: not listed here. ECn: concentration that inhibits the pathogen or its effect by n%.

| SMILES | strain | method | result |
|---|---|---|---|
| CCn1cc(C(N)=O)c(=O)c2ccc(-c3ccc([N+](=O)[O-])cc3)cc21 | - | plaque count | >100 µg/mL |
| COC(=O)[C@H](C)NP(=O)(OC[C@H]1C/C1=C/n1cnc2c(N)nc(N)nc21)Oc1ccccc1 | - | plaque count | 15 µM |
| O=c1[nH]c(=O)n([C@H]2C[C@H](O)[C@@H](COP3(=O)OCc4c(Cl)cccc4O3)O2)cc1/C=C/Br | G (TK+) | plaque count | >128 µg/mL |
| O=c1[nH]cnc2c1ncn2[C@H]1O[C@@H](CO)C[C@H]1F | - | - | >100 µM |
| Cc1cccc2c1OP(=O)(OC[C@H]1O[C@@H](n3cc(/C=C/Br)c(=O)[nH]c3=O)C[C@@H]1OC(=O)CN)OC2 | G (TK+) | plaque count | >128 µg/mL |
| NC(=O)c1cn(CCO)c2cc(-c3ccncc3)ccc2c1=O | - | plaque count | >50 µg/mL |
| Nc1nc2c(ncn2COCCO)c(=O)[nH]1 | G | plaque count | 9 µM |
| NC(=O)c1cn(-c2ccc(F)cc2)c2cc(Br)ccc2c1=O | - | plaque count | >6.25 µg/mL |
| CCCCCCCCCC(=O)O[C@H]1C[C@H](n2cc(/C=C/Br)c(=O)[nH]c2=O)O[C@@H]1COP1(=O)OCc2cccc(C)c2O1 | G (TK+) | plaque count | >128 µg/mL |
| O=c1[nH]c(=O)n([C@H]2C[C@H](O)[C@@H](CO)O2)cc1I | K979 | cytopathic effect | >2.8 µM |
| COC(=O)[C@H](C)NP(=O)(OCC1C/C1=C\n1cnc2c(N)ncnc21)Oc1ccccc1 | - | plaque count | >10 µM |
| CCn1cc(C(=O)NNC)c(=O)c2ccc(-c3ccncc3)cc21 | - | plaque count | >25 µg/mL |
| COC(=O)[C@H](C)NP(=O)(OC[C@H]1C/C1=C/n1cnc2c(=O)[nH]c(N)nc21)Oc1ccccc1 | - | plaque count | >100 µM |
| C[C@H](N)C(=O)O[C@H]1C[C@H](n2cc(/C=C/Br)c(=O)[nH]c2=O)O[C@@H]1COP1(=O)OCc2ccccc2O1 | G (TK+) | plaque count | >128 µg/mL |
| Cc1cn([C@H]2O[C@@H](CO)C[C@H]2F)c(=O)nc1N | - | - | >100 µM |
| O=C(O)P(=O)(O)O | TK- | cytopathic effect | >79.4 µM |
| O=c1[nH]c(=O)n([C@H]2O[C@@H](CO)C[C@H]2F)cc1Br | - | - | >100 µM |
| Cc1cccc2c1OP(=O)(OC[C@H]1O[C@@H](n3cc(/C=C/Br)c(=O)[nH]c3=O)C[C@@H]1OC(=O)[C@@H](N)Cc1ccccc1)OC2 | G (TK+) | plaque count | >128 µg/mL |
| Nc1nc(=O)n([C@H]2O[C@@H](CO)C[C@H]2F)cc1Cl | - | - | >100 µM |
| CC[C@H](C)[C@H](N)C(=O)O[C@H]1C[C@H](n2cc(/C=C/Br)c(=O)[nH]c2=O)O[C@@H]1COP1(=O)OCc2cccc(C)c2O1 | G (TK+) | plaque count | >128 µg/mL |
| Nc1nc2c(ncn2COCCO)c(=O)[nH]1 | TK- | cytopathic effect | >132 µM |
| Cc1cccc2c1OP(=O)(OC[C@H]1O[C@@H](n3cc(/C=C/Br)c(=O)[nH]c3=O)C[C@@H]1OC(=O)[C@H](N)CC(C)C)OC2 | G (TK+) | plaque count | >128 µg/mL |
| CCn1cc(C(N)=O)c(=O)c2ccc(-c3cnc(C)s3)cc21 | - | plaque count | >100 µg/mL |
| CCOC(=O)P(=O)(OC)OC[C@H]1O[C@@H](n2cc(I)c(=O)[nH]c2=O)C[C@@H]1O | TK- | cytopathic effect | >5.9 µM |
| O=c1[nH]c(=O)n([C@H]2C[C@H](O)[C@@H](COP3(=O)OCc4cc(Cl)ccc4O3)O2)cc1/C=C/Br | G (TK+) | plaque count | >128 µg/mL |

A second listing of 2 rows from above:

SMILES,strain,method,result
CCOC(=O)P(=O)(OC)OC[C@H]1O[C@@H](n2cc(I)c(=O)[nH]c2=O)C[C@@H]1O,TK-,cytopathic effect,>5.9 µM
NC(=O)c1cn(-c2ccc(F)cc2)c2cc(Br)ccc2c1=O,-,plaque count,>6.25 µg/mL